No dose or concentration is given here for some results.

Experimental findings from paper PMC7954794, “Protein context shapes the specificity of SH3 domain-mediated interactions in vivo” (Nature Communications, 2021) are described below.

First the molecules themselves.
B1: YKL117W (protein, UniProt P28707 2-216, looked up)
Co-chaperone protein SBA1: SDKVINPQVAWAQRSSTTDPERNYVLITVSIADCDAPELTIKPSYIELKAQSKPHVGDENVHHYQLHIDLYKEIIPEKTMHKVANGQHYFLKLYKKDLESEYWPRLTKEKVKYPYIKTDFDKWVDEDEQDEVEAEGNDAAQGMDFSQMMGGAGGAGGAGGMDFSQMMGGAGGAGSPDMAQLQQLLAQSGGNLDMGDFKENDEEDEEEEIEPEVKA
B2: YNR007C (protein, UniProt P40344 1-310, looked up)
Autophagy-related protein 3: MIRSTLSSWREYLTPITHKSTFLTTGQITPEEFVQAGDYLCHMFPTWKWNEESSDISYRDFLPKNKQFLIIRKVPCDKRAEQCVEVEGPDVIMKGFAEDGDEDDVLEYIGSETEHVQSTPAGGTKDSSIDDIDELIQDMEIKEEDENDDTEEFNAKGGLAKDMAQERYYDLYIAYSTSYRVPKMYIVGFNSNGSPLSPEQMFEDISADYRTKTATIEKLPFYKNSVLSVSIHPCKHANVMKILLDKVRVVRQRRRKELQEEQELDGVGDWEDLQDDIDDSLRVDQYLIVFLKFITSVTPSIQHDYTMEGW
B3: YNL287W (protein, UniProt P32074 1-935, looked up)
Coatomer subunit gamma: MSAHTYKKFENSTSGDLPDKMTIYQDCMNTFNESPVNSKRCRLLISRLLRLLAQGETFPQNEATALFFSISKLFQHQNDPLRQAVYLAIKELSGISEDVLMATSSIMKDVQNGSDLIKPDAIRSLTYVLDESTAFSAERLLKSAVVSRHPSISSAALCTSYHLLPISEVTIRRFTNETQEAVLDLKQFPNQHGNSEYYPNSTYISQYHALGLLYQLKKTDKMALLKLVRHFSENNSMKNQLAKVELVKIVNDLIYRDPQLFSQFRPLLSDWLSNKFESVQLETAKLITSFATRNSRLVAPELYAAAISALQSLLTVPRVSSRFAALRILNRISMVSPEKIVVCNPELESLINDSNRNISTYAITTLLKTGTSKNISSLISTITNFIHDVSDDFKIIIIDAVRTLSLNFPQEWKSILNFLIDVLKNSEGGFKFKNSIVEALIDIVSFVPQSKELALENLCDFIEDCEFNEILVRILHLLGKEGPSAPNPSLYVRHIYNRVVLENSIIRSAAVVALSKFALTKNDPTLYESIISLLKRIANDKDDEVRDRATIALEFIDSARNKDDVIAQNLIESKYFYDIPSLESKLSSYISSNTDSFATAFDVNQVRKFTEDEMKAINLKRKQEQIFNQKSETTLDTTPEAESVPEKRADANSFAGPNLDDHQEDLLATKYADELLSIEQIKPFGQLVNSSRAISLTEPEAEFVVRGVKHLFKDNVVLQFNITNTLTDIALDNVSVVCTPEISDEAELEELFTLQVDRLLPSEEAACYVAFKKLDEIVMEGFLNNLTFTTKEINPDTNEPFDGDEGFQDEYEIDSIFLNAGDYVKSSFTGNFSATFDELPCEEVAVFNIQEDLSIQEVVDKIILNSSCLPVESTQFAPSDSNSHTLKLFGKSALTGSKVALQIKMIKSSKGLALKVHGKGEDSLLCSDLVNGLMQ
B4: YAR042W (protein, UniProt P35845 1-1188, looked up)
Oxysterol-binding protein …: MEQPDLSSVAISKPLLKLKLLDALRQGSFPNLQDLLKKQFQPLDDPNVQQVLHLMLHYAVQVAPMAVIKEIVHHWVSTTNTTFLNIHLDLNERDSNGNTPLHIAAYQSRGDIVAFLLDQPTINDCVLNNSHLQAIEMCKNLNIAQMMQVKRSTYVAETAQEFRTAFNNRDFGHLESILSSPRNAELLDINGMDPETGDTVLHEFVKKRDVIMCRWLLEHGADPFKRDRKGKLPIELVRKVNENDTATNTKIAIDIELKKLLERATREQSVIDVTNNNLHEAPTYKGYLKKWTNFAQGYKLRWFILSSDGKLSYYIDQADTKNACRGSLNMSSCSLHLDSSEKLKFEIIGGNNGVIRWHLKGNHPIETNRWVWAIQGAIRYAKDREILLHNGPYSPSLALSHGLSSKVSNKENLHATSKRLTKSPHLSKSTLTQNDHDNDDDSTNNNNNKSNNDYDDNNNNNNNDDDDYDDDDESRPLIEPLPLISSRSQSLSEITPGPHSRKSTVSSTRAADIPSDDEGYSEDDSDDDGNSSYTMENGGENDGDEDLNAIYGPYIQKLHMLQRSISIELASLNELLQDKQQHDEYWNTVNTSIETVSEFFDKLNRLTSQREKRMIAQMTKQRDVNNVWIQSVKDLEMELVDKDEKLVALDKERKNLKKMLQKKLNNQPQVETEANEESDDANSMIKGSQESTNTLEEIVKFIEATKESDEDSDADEFFDAEEAASDKKANDSEDLTTNKETPANAKPQEEAPEDESLIVISSPQVEKKNQLLKEGSFVGYEDPVRTKLALDEDNRPKIGLWSVLKSMVGQDLTKLTLPVSFNEPTSLLQRVSEDIEYSHILDQAATFEDSSLRMLYVAAFTASMYASTTNRVSKPFNPLLGETFEYARTDGQYRFFTEQVSHHPPISATWTESPKWDFYGECNVDSSFNGRTFAVQHLGLWYITIRPDHNISVPEETYSWKKPNNTVIGILMGKPQVDNSGDVKVTNHTTGDYCMLHYKAHGWTSAGAYEVRGEVFNKDDKKLWVLGGHWNDSIYGKKVTARGGELTLDRIKTANSATGGPKLDGSKFLIWKANERPSVPFNLTSFALTLNALPPHLIPYLAPTDSRLRPDQRAMENGEYDKAAAEKHRVEVKQRAAKKEREQKGEEYRPKWFVQEEHPVTKSLYWKFNGEYWNKRKNHDFKDCADIF
B5: YJL151C (protein, UniProt P14359 1-133, looked up)
Protein SNA3: MDRDHINDHDHRMSYSINKDDLLLMVLAVFIPPVAVWKRKGMFNRDTLLNLLLFLLLFFPAIIHACYVVYETSSERSYDLSRRHATAPAVDRDLEAHPAEESQAQPPAYDEDDEAGADVPLMDNKQQLSSGRT
B6: YMR080C (protein, UniProt P30771 1-971, looked up)
ATP-dependent helicase NAM7: MVGSGSHTPYDISNSPSDVNVQPATQLNSTLVEDDDVDNQLFEEAQVTETGFRSPSASDNSCAYCGIDSAKCVIKCNSCKKWFCNTKNGTSSSHIVNHLVLSHHNVVSLHPDSDLGDTVLECYNCGRKNVFLLGFVSAKSEAVVVLLCRIPCAQTKNANWDTDQWQPLIEDRQLLSWVAEQPTEEEKLKARLITPSQISKLEAKWRSNKDATINDIDAPEEQEAIPPLLLRYQDAYEYQRSYGPLIKLEADYDKQLKESQALEHISVSWSLALNNRHLASFTLSTFESNELKVAIGDEMILWYSGMQHPDWEGRGYIVRLPNSFQDTFTLELKPSKTPPPTHLTTGFTAEFIWKGTSYDRMQDALKKFAIDKKSISGYLYYKILGHQVVDISFDVPLPKEFSIPNFAQLNSSQSNAVSHVLQRPLSLIQGPPGTGKTVTSATIVYHLSKIHKDRILVCAPSNVAVDHLAAKLRDLGLKVVRLTAKSREDVESSVSNLALHNLVGRGAKGELKNLLKLKDEVGELSASDTKRFVKLVRKTEAEILNKADVVCCTCVGAGDKRLDTKFRTVLIDESTQASEPECLIPIVKGAKQVILVGDHQQLGPVILERKAADAGLKQSLFERLISLGHVPIRLEVQYRMNPYLSEFPSNMFYEGSLQNGVTIEQRTVPNSKFPWPIRGIPMMFWANYGREEISANGTSFLNRIEAMNCERIITKLFRDGVKPEQIGVITPYEGQRAYILQYMQMNGSLDKDLYIKVEVASVDAFQGREKDYIILSCVRANEQQAIGFLRDPRRLNVGLTRAKYGLVILGNPRSLARNTLWNHLLIHFREKGCLVEGTLDNLQLCTVQLVRPQPRKTERPMNAQFNVESEMGDFPKFQDFDAQSMVSFSGQIGDFGNAFVDNTELSSYINNEYWNFENFKSAFSQKQNRNEIDDRNLYQEEASHLNSNFARELQREEQKHELSKDFSNLGI
B7: YGR178C (protein, UniProt P53297 1-722, looked up)
PAB1-binding protein 1: MKGNFRKRDSSTNSRKGGNSDSNYTNGGVPNQNNSSMFYENPEITRNFDDRQDYLLANSIGSDVTVTVTSGVKYTGLLVSCNLESTNGIDVVLRFPRVADSGVSDSVDDLAKTLGETLLIHGEDVAELELKNIDLSLDEKWENSKAQETTPARTNIEKERVNGESNEVTKFRTDVDISGSGREIKERKLEKWTPEEGAEHFDINKGKALEDDSASWDQFAVNEKKFGVKSTFDEHLYTTKINKDDPNYSKRLQEAERIAKEIESQGTSGNIHIAEDRGIIIDDSGLDEEDLYSGVDRRGDELLAALKSNSKPNSNKGNRYVPPTLRQQPHHMDPAIISSSNSNKNENAVSTDTSTPAAAGAPEGKPPQKTSKNKKSLSSKEAQIEELKKFSEKFKVPYDIPKDMLEVLKRSSSTLKSNSSLPPKPISKTPSAKTVSPTTQISAGKSESRRSGSNISQGQSSTGHTTRSSTSLRRRNHGSFFGAKNPHTNDAKRVLFGKSFNMFIKSKEAHDEKKKGDDASENMEPFFIEKPYFTAPTWLNTIEESYKTFFPDEDTAIQEAQTRFQQRQLNSMGNAVPGMNPAMGMNMGGMMGFPMGGPSASPNPMMNGFAAGSMGMYMPFQPQPMFYHPSMPQMMPVMGSNGAEEGGGNISPHVPAGFMAAGPGAPMGAFGYPGGIPFQGMMGSGPSGMPANGSAMHSHGHSRNYHQTSHHGHHNSSTSGHK
B8: YLR258W (protein, UniProt P27472 1-705, looked up)
Glycogen [starch] synthase …: MSRDLQNHLLFETATEVANRVGGIYSVLKSKAPITVAQYKDHYHLIGPLNKATYQNEVDILDWKKPEAFSDEMRPVQHALQTMESRGVHFVYGRWLIEGAPKVILFDLDSVRGYSNEWKGDLWSLVGIPSPENDFETNDAILLGYTVAWFLGEVAHLDSQHAIVAHFHEWLAGVALPLCRKRRIDVVTIFTTHATLLGRYLCASGSFDFYNCLESVDVDHEAGRFGIYHRYCIERAAAHSADVFTTVSQITAFEAEHLLKRKPDGILPNGLNVIKFQAFHEFQNLHALKKEKINDFVRGHFHGCFDFDLDNTLYFFIAGRYEYKNKGADMFIEALARLNYRLKVSGSKKTVVAFIVMPAKNNSFTVEALKGQAEVRALENTVHEVTTSIGKRIFDHAIRYPHNGLTTELPTDLGELLKSSDKVMLKRRILALRRPEGQLPPIVTHNMVDDANDLILNKIRQVQLFNSPSDRVKMIFHPEFLNANNPILGLDYDEFVRGCHLGVFPSYYEPWGYTPAECTVMGVPSITTNVSGFGAYMEDLIETNQAKDYGIYIVDRRFKAPDESVEQLVDYMEEFVKKTRRQRINQRNRTERLSDLLDWKRMGLEYVKARQLALRRGYPDQFRELVGEELNDSNMDALAGGKKLKVARPLSVPGSPRDLRSNSTVYMTPGDLGTLQEVNNADDYFSLGVNPAADDDDDGPYADDS
B9: YDL160C (protein, UniProt P39517 1-506, looked up)
ATP-dependent RNA helicase …: MGSINNNFNTNNNSNTDLDRDWKTALNIPKKDTRPQTDDVLNTKGNTFEDFYLKRELLMGIFEAGFEKPSPIQEEAIPVAITGRDILARAKNGTGKTAAFVIPTLEKVKPKLNKIQALIMVPTRELALQTSQVVRTLGKHCGISCMVTTGGTNLRDDILRLNETVHILVGTPGRVLDLASRKVADLSDCSLFIMDEADKMLSRDFKTIIEQILSFLPPTHQSLLFSATFPLTVKEFMVKHLHKPYEINLMEELTLKGITQYYAFVEERQKLHCLNTLFSKLQINQAIIFCNSTNRVELLAKKITDLGYSCYYSHARMKQQERNKVFHEFRQGKVRTLVCSDLLTRGIDIQAVNVVINFDFPKTAETYLHRIGRSGRFGHLGLAINLINWNDRFNLYKIEQELGTEIAAIPATIDKSLYVAENDETVPVPFPIEQQSYHQQAIPQQQLPSQQQFAIPPQQHHPQFMVPPSHQQQQAYPPPQMPSQQGYPPQQEHFMAMPPGQSQPQY
B10: YBL071W-A (protein, UniProt Q3E840 1-82, looked up)
Diphthamide biosynthesis …: MSTYDEIEIEDMTFEPENQMFTYPCPCGDRFQIYLDDMFEGEKVAVCPSCSLMIDVVFDKEDLAEYYEEAGIHPPEPIAAAA

The test system of the series is ABP1. Description: DHFR-PCA on solid medium, bait ABP1 (Fig. 1B). Also noted: key: 0: SH3-independent; 1: SH3-dependent PPIs; 2: SH3-inhibited PPIs. It is filed as cell-based, Saccharomyces cerevisiae. Particulars: bait ABP1, label = prey. An excerpt: Supplement 41467_2021_21873_MOESM8_ESM.xlsx, sheet "Fig1B" | column: medsize; medrep; Ratio; Score
Regarding B1, the Score is given as 2.

In the case of B2, the Score turned out to be 2.

Molecule B3 gave a Score of 2.

Take B4: the Score worked out at 2.

B5 yielded a Score of 2.

In the case of B6, the Score was found to be 2.

The molecule B7 had a Score of 2.

Take B8: the Score was determined as 2.

B9: the Score is recorded as 2.

On to B10, for which the Score turned out to be 2.
